Reference: patent publication US20190046536A1, “Combination Therapy” (Eli Lilly and Company, priority 2016, published 2019)

B1: Antibody I: anti-N3pGlu Abeta antibody with LC of SEQ ID NO: 12 and HC of SEQ ID NO: 11 (antibody)
heavy: QVQLVQSGAEVKKPGSSVKVSCKASGYTFTDYYINWVRQAPGQGLEWMGWINPGSGNTKYNEKFKGRVTITADESTSTAYMELSSLRSEDTAVYYCTREGETVYWGQGTLVTVSSASTKGPSVFPLAPSSKSTSGGTAALGCLVKDYFPEPVTVSWNSGALTSGVHTFPAVLQSSGLYSLSSVVTVPSSSLGTQTYICNVNHKPSNTKVDKKV[letters of human IgG1 Fc left out]
light: DVVMTQSPLSLPVTLGQPASISCKSSQSLLYSRGKTYLNWFQQRPGQSPRRLIYDVSKLDSGVPDRFSGSGSGTDFTLKISRVEAEDVGVYYCVQGTHYPFTFGQGTKLEIKRTVAAPSVFIFPPSDEQLKSGTASVVCLLNNFYPREAKVQWKVDNALQSGNSQESVTEQDSKDSTYSLSSTLTLSKADYEKHKVYACEVTHQGLSSPVTKSFNRGEC
B2: Antibody II: anti-N3pGlu Abeta antibody with LC of SEQ ID NO: 13 and HC of SEQ ID NO: 11 (antibody)
heavy: B1 heavy
light: DIQMTQSPSTLSASVGDRVTITCKSSQSLLYSRGKTYLNWLQQKPGKAPKLLIYAVSKLDSGVPSRFSGSGSGTEFTLTISSLQPDDFATYYCVQGTHYPFTFGQGTKLEIKRTVAAPSVFIFPPSDEQLKSGTASVVCLLNNFYPREAKVQWKVDNALQSGNSQESVTEQDSKDSTYSLSSTLTLSKADYEKHKVYACEVTHQGLSSPVTKSFNRGEC

Molecular target: T1, Aβ […] peptide (Homo sapiens)
T1 construct: Aβ 1-40 peptide
Assay: Binding affinity and kinetics by surface plasmon resonance (BIACORE 3000)
Conditions: 25° C., HBS-EP buffer pH 7.4
Method: The binding affinity and kinetics of an anti-[…] […] The binding affinity is measured by capturing the anti-[…] AP antibody via immobilized protein A on a BIACORE® CMS chip, and flowing pE3-42 Aβ peptide or Aβ 1-40 peptide, starting from 100 nM in 2-fold serial dilution down to 3.125 nM. The experiments are carried out at 25° C. in HBS-EP buffer (GE Healthcare BR100669; 10 mM HEPES, 150 mM NaCl, 3 mM EDTA, 0.05% surfactant P20, pH 7.4). For each cycle, the antibody is captured with 5 μL injection of antibody solution at a 10 μg/mL concentration with 10 μL/min flow rate. The peptide is bound with 250 μL injection at 50 μL/min, and then dissociated for 10 minutes. The chip surface is regenerated with 5 μL injection of glycine buffer at pH 1.5 at 10 μL/mL flow rate. The data is fit to a 1:1 Langmiur binding model to derive kon, koff, and to calculate KD.

Row | Molecule | binding to Aβ 1-40
1 | B1 | No appreciable binding
2 | B2 | No appreciable binding
